Measured values from several laboratories, pooled; numbers as filed in NIAID ChemDB.

Common to all: whole-cell or culture tests; species: HIV-1; endpoint: fold resistance

Fold resistance has wild type as its base. Neighbouring rows are from separate reports. Blank or dashed fields: not listed here.

structure | read by | mutations | cells | strain or isolate | setting | result
Fc1cccc(F)c1[C@H]1SCc2nc3ccccc3n21 | cytopathic effect / XTT | RT-V106N | CEM | IIIB |  | 7.82
CC(=O)c1ccc(C)cc1NC(C(N)=O)c1c(Cl)cccc1Cl | p24 | RT-Y181C | MT-4 | HE/NEV(RT-Y181C) |  | >3703
Cc1cn([C@H]2C=C[C@@H](CO)O2)c(=O)[nH]c1=O | p24 | MDR | PBMC | JSL |  | 9
O=C1N(Cc2ccc(CO)cc2)[C@H](COc2ccccc2)[C@H](O)[C@@H](O)[C@@H](COc2ccccc2)N1Cc1ccc(CO)cc1 | cytopathic effect / XTT | PR-V82A | MT-4 | IIIB |  | 1.43
Cc1cn([C@H]2C[C@H](N=[N+]=[N-])[C@@H](CO)O2)c(=O)[nH]c1=O | p24 | RT-A62V | PBMC | Recombinant |  | 0
Cc1cn([C@H]2C[C@H](N=[N+]=[N-])[C@@H](CO)O2)c(=O)[nH]c1=O | p24 | RT-L74V | PBMC |  |  | 1.5
CCOCn1c(Cc2ccccc2)c(C(C)C)c(=O)[nH]c1=O | syncytia | RT-E138K | CEM | IIIB |  | 18
Cc1cn([C@H]2C[C@H](N=[N+]=[N-])[C@@H](CO)O2)c(=O)[nH]c1=O | cytopathic effect / XTT | RT-Y181C | CEM + CEM-SS | IIIB |  | 0.2
Cc1occc1C(=S)Nc1ccc(Cl)c(C(=O)OC2CCCC2)c1 | syncytia | RT-E138K | CEM | IIIB |  | 7
Cc1cn([C@H]2C[C@H](N=[N+]=[N-])[C@@H](CO)O2)c(=O)[nH]c1=O | XTT | RT-A98G | CEM + CEM-SS | NL4-3 |  | 10
Cc1ccc(NC(=O)CSc2nnc(C)n2-c2ccc(Cl)c3ccccc23)c(Cl)c1 | luciferase | RT-K103N Y181C | HeLa + HeLa-JC53 | NL4-3 |  | 190
CC(C)=CCN1c2cc(Cl)cc3[nH]c(=S)n(c23)C[C@@H]1C |  | RT-K70R K101E | MT-4 |  |  | 15
CC(C)=CCOc1cc(NC(=S)c2ccsc2C)ccc1Cl | cytopathic effect | RT-V179D | CEM | IIIB |  | 3
Cc1ccc2ccccc2c1-n1c(C)nnc1SCC(=O)Nc1ccccc1Br | luciferase | RT-Y188L | HeLa + HeLa-JC53 | NL4-3 |  | 210
Cc1cc(Br)cc(S(=O)(=O)c2cccc(N)c2C#N)c1 | β-galactosidase | RT-K103N Y181C | HeLa + HELA CD4+ |  |  | >4550
Cc1ccnc2c1NC(=O)c1cccnc1N2C1CC1 | XTT | RT-V106I | CEM + CEM-SS | NL4-3 |  | >100
O=c1[nH]cnc2c1ncn2[C@H]1CC[C@@H](CO)O1 | p24 | RT-L74V T215Y K219Q | PBMC |  |  | 5
Cc1occc1C(=S)Nc1ccc(Cl)c(/C=N/OC(C)(C)C)c1 | syncytia | RT-L100I | CEM | IIIB |  | 1.7
Cc1cn([C@H]2C[C@H](N=[N+]=[N-])[C@@H](CO)O2)c(=O)[nH]c1=O | p24 | MDR | PBMC | TM |  | 98
CC(C)CN(C[C@@H](O)[C@H](Cc1ccccc1)NC(=O)O[C@H]1CCOC1)S(=O)(=O)c1ccc(N)cc1 | p24 / ELISA | K112M K113E V128I | MT-2 | IIIB |  | 0.9
Cc1ccc(NC(=O)CSc2nnc(C)n2-c2cccc3cccnc23)c(Cl)c1 | luciferase | RT-Y188L | HeLa + HeLa-JC53 | NL4-3 |  | 712
Cc1cn([C@@H]2O[C@H](CO[Si](C)(C)C(C)(C)C)C3(OS(=O)(=O)C=C3N)[C@H]2O[Si](C)(C)C(C)(C)C)c(=O)n(C)c1=O | syncytia | RT-E138K | CEM | IIIB |  | 182
Cc1cn([C@@H]2O[C@H](CO[Si](C)(C)C(C)(C)C)C3(OS(=O)(=O)C=C3N)[C@H]2O[Si](C)(C)C(C)(C)C)c(=O)n(C)c1=O | cytopathic effect / XTT | RT-Y188C | CEM | IIIB |  | 80
Cc1cn([C@H]2C[C@H](N=[N+]=[N-])[C@@H](CO)O2)c(=O)[nH]c1=O |  | RT-A98G | PBMC | VAU (RT-A98G) |  | 1
CC(C)=CCOc1cc(NC(=S)c2ccsc2C)ccc1Cl | XTT | RT-T139I | CEM + CEM-SS | Calanolide A-resistant (RT T139I) |  | 0.6
Cc1cn([C@H]2C[C@H](N=[N+]=[N-])[C@@H](CO)O2)c(=O)[nH]c1=O | p24 / ELISA | I401T | MT-2 | IIIB |  | 0.4
CC(C)CN([C@H](CO)CCCCNC(=O)[C@@H](NC(=O)c1ccc(N)nc1)C(c1ccccc1)c1ccccc1)S(=O)(=O)c1ccc(N)cc1 | cytopathic effect / MTT | PR-M46I V82T I84V L10R L63P | MT-4 | 4596 PR-M46I V82T I84V L10R L63P |  | 0.86
Cc1cc(Cl)cc(S(=O)(=O)c2cccc(N)c2C#N)c1 | β-galactosidase | RT-Y181C | HeLa + HELA CD4+ |  |  | 1110
O=c1[nH]cnc2c1ncn2[C@H]1CC[C@@H](CO)O1 | p24 | MDR | PBMC | MM |  | 8
Cc1ccc(-n2c(C)nnc2SCC(=O)Nc2ccccc2C(F)(F)F)cc1 | luciferase | RT-K103N Y181C | HeLa + HeLa-JC53 | NL4-3 |  | >1429
Cc1cn([C@H]2C=C[C@@H](COC(=O)NCCSC(=O)OC[C@@H]3C=C[C@H](n4cc(C)c(=O)[nH]c4=O)O3)O2)c(=O)[nH]c1=O | cytopathic effect / MTT | RT-K103R V179D P225H | MT-4 | EFV-resistant (RT K103R V179D P225H) |  | 0.3
Cc1ccc2cc(Cl)cc(-n3c(C)nnc3SCC(=O)Nc3ccc(S(N)(=O)=O)cc3Cl)c2n1 | luciferase | RT-Y188L | HeLa + HeLa-JC53 | NL4-3 |  | 50
Cc1cn([C@@H]2O[C@H](CO[Si](C)(C)C(C)(C)C)C3(OS(=O)(=O)C=C3N)[C@H]2O[Si](C)(C)C(C)(C)C)c(=O)n(C)c1=O | syncytia | RT-V106A | CEM | IIIB |  | 91.7
Cc1ccc(S(=O)(=O)N(CC(C)C)C[C@@H](O)[C@H](Cc2ccccc2)NC(=O)O[C@H]2CO[C@H]3OCC[C@H]32)cc1 | p24 / ELISA | I401T R409K D437N | MT-2 | IIIB |  | 4.3
CC(C)Nc1cccnc1N1CCN(C(=O)c2cc3cc(NS(C)(=O)=O)ccc3[nH]2)CC1 | p24 |  | PBMC | 410 clinical isolates AZT-resistant |  | >100
Nc1ccn([C@H]2CC[C@@H](CO)O2)c(=O)n1 |  | RT-D67N K70R T215F K219Q | HT4 + HT4 LacZ-1 | RTMC (RT D67N K70R T215F K219Q) |  | 1.71
CCc1c(Sc2ccccn2)n(COCc2ccccc2)c(=O)[nH]c1=O | cytopathic effect / XTT | RT-V108I | CEM + CEM-SS | IIIB |  | 27
Nc1nc(=O)n([C@@H]2CC[C@H](CO)O2)cc1F |  | RT-D67N K70R T215F K219Q | HT4 + HT4 LacZ-1 | RTMC (RT D67N K70R T215F K219Q) |  | 2.5
CC(C)=CCN1Cc2cc(Cl)cc3[nH]c(=S)n(c23)C[C@@H]1C |  | RT-A98G | PBMC | VAU (RT-A98G) |  | 4
Cc1cn([C@H]2C[C@H](N=[N+]=[N-])[C@@H](CO)O2)c(=O)[nH]c1=O | p24 |  | PBMC | 477 clinical isolates delavirdine-resistant |  | 1
CC(C)=CCOCn1c(Cc2cc(C)cc(C)c2)c(C(C)C)c(=O)[nH]c1=O | cytopathic effect / MTT | RT-K103N Y181C | MT-4 | IIIB |  | 173333
CC(C)c1nc(CN(C)C(=O)N[C@H](C(=O)N[C@@H](Cc2ccccc2)C[C@H](O)[C@H](Cc2ccccc2)NC(=O)OCc2cncs2)C(C)C)cs1 | p24 | PR-M46I I84V | MT-4 | NL4-3-P28 (PR M46I I84V) |  | 18
CC(C)(C)C(=O)c1sc(C(=O)NCc2ccccc2)c(O)c1O |  | INTG-T66I |  |  |  | 0.16
CCOCn1c(Cc2ccccc2)c(C(C)C)c(=O)[nH]c1=O | cytopathic effect / MTT | RT-K103N |  | HXB23(RT-K103N |  | 210
O=c1[nH]cnc2c1ncn2[C@H]1CC[C@@H](CO)O1 | p24 | RT-K65R L74V M184V Y115F | PBMC | XM-ABC-resistant |  | 1.4
Cc1cn([C@H]2C[C@H](N=[N+]=[N-])[C@@H](CO)O2)c(=O)[nH]c1=O |  | INTG-S153 N155S |  |  |  | 1
Cc1ccc(-n2c(C)nnc2SCC(=O)Nc2ccccc2Br)cc1 | luciferase | RT-K103N Y181C | HeLa + HeLa-JC53 | NL4-3 |  | 190
Nc1nc(=O)n([C@H]2CS[C@@H](CO)O2)cc1F | recombinant virus assay / single cycle | T66I | MT-2 | HXB2 | pseudotyped | 0.8
Nc1nc2c(ncn2[C@H]2CO[C@@H](CO)O2)c(=O)[nH]1 |  | RT-K103N |  | Clinical isolate |  | ~0.172
Cc1cc(C#N)cc(C)c1Oc1nc(Nc2ccc(C#N)cc2)ncc1SCC(=O)N1CCSCC1 | MTT | Y188L | MT-4 |  |  | 4.6
CC(C)Oc1ccc(Cc2ccccc2)cc1C(=O)CC(=O)C(=O)O |  | INTG-Q148K |  |  |  | 9
Nc1ccn([C@H]2CC[C@@H](CO)O2)c(=O)n1 | p24 | RT-Q151M | PBMC | Recombinant |  | 0.035
Cc1cc(O)cc(S(=O)(=O)c2cccc(N)c2C#N)c1 | β-galactosidase | RT-L100I K103N | HeLa + HELA CD4+ |  |  | 79.4
Cc1cn([C@H]2C[C@H](N=[N+]=[N-])[C@@H](CO)O2)c(=O)[nH]c1=O | p24 | RT-M41L D67N K70R T215Y K219Q | PBMC | XM-AZT-resistant |  | 56
Cc1cn([C@H]2C[C@H](N=[N+]=[N-])[C@@H](COC(=O)NCCSC(=O)OC[C@H]3O[C@@H](n4cc(C)c(=O)[nH]c4=O)C[C@@H]3N=[N+]=[N-])O2)c(=O)[nH]c1=O | cytopathic effect / MTT | RT-Y181C | MT-4 | NNRTI-resistant (RT Y181C) |  | 0.2
CCCCN1C(=O)C(CC2CCCCC2)NC(=O)C12CCN(Cc1ccc3c(c1)OCCO3)CC2 | p24 | MDR | PBMC | TM |  | >25
Fc1cccc(F)c1C1SCc2nc3ccccc3n21 | cytopathic effect / XTT | RT-Y188C | CEM | IIIB |  | 2.99
COc1cc(C(F)(F)F)cc(S(=O)(=O)c2cccc(N)c2C#N)c1 | β-galactosidase | RT-V106A Y181C | HeLa + HELA CD4+ |  |  | 30
Cc1cn([C@H]2C[C@H](N=[N+]=[N-])[C@@H](COC(=O)NCCSC(=O)OC[C@@H]3CC[C@H](n4cnc5c(=O)[nH]cnc54)O3)O2)c(=O)[nH]c1=O | cytopathic effect / MTT | RT-K103N Y181C | MT-4 | NNRTI-resistant (RT K103N Y181C) |  | 1.2
Cc1ccc(C(=O)N[C@H](C(=O)NCCCC[C@@H](CO)N(CC(C)C)S(=O)(=O)c2ccc(N)cc2)C(c2ccccc2)c2ccccc2)cn1 | cytopathic effect / MTT | PR-M46I V82T I84V L10R L63P | MT-4 | 4596 PR-M46I V82T I84V L10R L63P |  | 1.42
CC(C)=CCN1Cc2cc(Cl)cc3[nH]c(=S)n(c23)C[C@@H]1C | cytopathic effect | RT-E138K | CEM | IIIB |  | 18.75
CCc1cc(NCc2nc3c(Cl)ccc(Cl)c3o2)c(=O)[nH]c1C | p24 | RT-V179D | MT-4 | NL4-3 |  | 4